These results are taken from ChEMBL document CHEMBL3352189 (J Med Chem, 2014).

SMILES strings stand for the structures.

The subject of the assay is Venezuelan equine encephalitis virus. Description: Antiviral activity against Venezuelan equine encephalitis virus TC83 infected in Vero 76 cells assessed as reduction in viral titer at 1 uM by crystal violet staining based microplaque assay relative to untreated control. It is filed as functional. As to conditions: strain TC83, Vero 76.

For the molecule `CN1CCN(C)/C(=N/c2ccc([N+](=O)[O-])cc2C(=O)Nc2ccccc2)C1`, the fold change (FC) is 1.6e+07.
